# According to article PMC6253839, “Screening of Agelasine D and Analogs for Inhibitory Activity against Pathogenic Protozoa; Identification of Hits for Visceral Leishmaniasis and Chagas Disease” (Molecules, 2009):
# Several values for one entry are separate records, joined by “and”; a condition that tells them apart may be missing. Equal entries are not always repeated.
# Experiments:
# [1] = tested on: Leishmania infantum amastigotes (MHOM/ET 67); assay: Antileishmanial activity, amastigotes in primary peritoneal mouse macrophages; assay type: cell-based; conditions: SI = IC50(fibroblast)/IC50(parasite); TDR criterion >20
# Method: Leishmania infantum amastigotes (MHOM/ET 67) were collected from an infected donor hamster and used to infect primary peritoneal mouse macrophages. To determine in vitro antileishmanial activity, 3×10^4 macrophages were seeded in each well of a 96-well plate. After 48 h outgrowth, 5×10^4 amastigotes/well were added and incubated for 2 h at 37 °C. […] Parasite burdens were determined microscopically after Giemsa staining and expressed as a percentage of the blank controls without compound.
# [2] = tested on: T. cruzi Tulahuen CL2 strain (nifurtimox-sensitive); assay: Antitrypanosomal activity, T. cruzi on MRC-5 cells, β-galactosidase readout; assay type: cell-based, Trypanosoma cruzi; conditions: SI = IC50(fibroblast)/IC50(parasite); TDR criterion >50
# Method: To determine in vitro anti-trypanosomal activity, 4×10^3 MRC-5 cells and 4×10^4 parasites were added to each well of test plate with compound. […] The color reaction was read at 540 nm and absorbance values were expressed as a percentage of the blank controls.
# [3] = tested on: P. falciparum GHA-strain (chloroquine-suceptible); assay: Antiplasmodial activity, Malstat method; assay type: cell-based, Plasmodium falciparum; conditions: SI = IC50(fibroblast)/IC50(parasite); TDR criterion >20
# [4] = tested on: T. b. brucei Squib-427 strain (suramin-sensitive); assay: Antitrypanosomal activity, T. b. brucei trypomastigotes, resazurin; conditions: SI = IC50(fibroblast)/IC50(parasite); TDR criterion >100
SMILES,L. infantum SI [1],T. cruzi SI [2],P. falciparum SI [3],T. b. brucei SI [4]
CO/N=c1\[n-]cnc2c1[n+](C/C=C(\C)CCC=C(C)C)cn2C [Compound 1a],<1,>11,1.9,<1
CO/N=c1\[n-]cnc2c1[n+](C/C=C(\C)CC/C=C(\C)CCC=C(C)C)cn2C [Compound 1b],<1,>3.6,<1,1.8
CC(C)=CCC/C(C)=C\CC/C(C)=C/C[n+]1cn(C)c2nc[n-]/c(=N\OCc3ccccc3)c21 [Compound 1c],<1,>2.8,<1,>2.8
CO/N=c1\[n-]cnc2c1[n+](C/C=C(\C)CC/C=C(\C)CC/C=C(\C)CCC=C(C)C)cn2C [Compound 1d],22,18,20,8.7
CC(C)=CCC/C(C)=C/CC/C(C)=C/CC/C(C)=C/C[n+]1cn(C)c2nc[n-]/c(=N\OCc3ccccc3)c21 [Compound 1e],<1,2.3,<1,11
CC(C)=CCC/C(C)=C/CC/C(C)=C/CC/C(C)=C/C[n+]1cn(C)c2nc[n-]/c(=N\OC(C)(C)C)c21 [Compound 1f],<1,>2.2,1.0,>2.2
CO/N=c1\[n-]cnc2c1[n+](C/C=C(\C)CC/C=C(\C)CC/C=C(\C)CCC=C(C)C)cn2CCC#N [Compound 1g],<1,<1,<1,<1
CC(C)=CCC/C(C)=C/CC/C(C)=C/CC/C(C)=C/C[n+]1cn(CCC#N)c2nc[n-]/c(=N\OCc3ccccc3)c21 [Compound 1h],<1,1.2,<1,2.1
CO/N=c1\[n-]cnc2c1[n+](C/C=C(\C)CC/C=C(\C)CC/C=C(\C)CCC=C(C)C)cn2C(c1ccccc1)c1ccccc1 [Compound 1i],<1,<1,<1,3.2
CO/N=c1\[n-]cnc2c1[n+](C/C=C(\C)CCCC(C)CCCC(C)CCCC(C)C)cn2C (stereo not drawn) [Compound 1j],<1,>1.9,<1,1.9
CC1=C(CC/C(C)=C/CC/C(C)=C/C[n+]2cn(C)c3nc[n-]/c(=N\OCc4ccccc4)c32)C(C)(C)CCC1 [Compound 1l],<1,3.8,<1,>4.1
CC1=C(CC/C(C)=C/CC/C(C)=C/C[n+]2cn(C)c3nc[n-]/c(=N\OC(C)(C)C)c32)C(C)(C)CCC1 [Compound 1m],<1,>4,<1,>4
C=C1CC[C@H]2C(C)(C)CCC[C@]2(C)[C@H]1CC/C(C)=C/C[n+]1cn(C)c2nc[n-]/c(=N\OC)c21 [Compound 1n],7.1,9.2,16,15
C=C1CC[C@H]2C(C)(C)CCC[C@]2(C)[C@H]1CC/C(C)=C/C[n+]1cn(C)c2nc[n-]/c(=N\OC(C)(C)C)c21 [Compound 1o],<1,>3.8,<1,>3.8
CC(C)=CCC/C(C)=C\CC/C(C)=C/C[n+]1cn(C)c2ncnc(N)c21 [Compound 2a],–,> 50 and >60,>9.0,>2
C/C(=C\C[n+]1cn(C)c2ncnc(N)c21)CCCC(C)CCCC(C)CCCC(C)C (stereo not drawn) [Compound 2b],<1,>6.3,<1,3.3
"C=C1CC[C@@H]2C(C)(C)CCC[C@@]2(C)[C@@H]1CC/C(C)=C/Cn1c[n+](C)c2ncnc(N)c21 [Compound 2c, agelasine D]",4.5,1.5,23,7.4
"CC(C)=CCC/C(C)=C/CC/C(C)=C/CC/C(C)=C/Cn1cnc2c(N)ncnc21 [Compound 3f, 9-Geranylgeranyladenine]",<1,–,<1,1.0
CC(C)=CCC/C(C)=C/CC/C(C)=C/CC/C(C)=C/Cn1cnc2ncnc(N)c21 [Compound 4a],<1,1.1,<1,<1
CONc1ncnc2ncn(C/C=C(\C)CC/C=C(\C)CC/C=C(\C)CCC=C(C)C)c12 [Compound 4b],<1,7.5,<1,2.4
CC(C)=CCC/C(C)=C/CC/C(C)=C/CC/C(C)=C/Cn1cnc2ncnc(NOCc3ccccc3)c21 [Compound 4c],<1,1.0,<1,<1
CC(C)=CCC/C(C)=C/CC/C(C)=C/CC/C(C)=C/Cn1cc[n+](C)c1 [Compound 5],>69,> 50 and >69,7.8,> 69
CC(C)=CCC/C(C)=C/CC/C(C)=C/CC/C(C)=C/Cn1c[n+](C)c2ccccc21 [Compound 6],–,>17,2.0,11
CC(C)=CCC/C(C)=C/CC/C(C)=C/CC/C(C)=C/C[n+]1cnc2c(ncn2C)c1N [Compound 7],–,1.5,1.6,3.9
CC(C)=CCC/C(C)=C/CC/C(C)=C/CC/C(C)=C/Cn1cnc2c1c(=N)ncn2C [Compound 8],–,12,–,3.7
CC1=C(CC/C(C)=C/CC/C(C)=C/Cn2cnc3c2C(=N)N(C)CN3C)C(C)(C)CCC1 [Compound 9],–,>8.8,–,>2
